## Potato spindle tuber viroid, loop 6: variant abundance in plants

The pool varies loop 6 of the PSTVd intermediate strain in the pattern UNNNCGNNNG; wild type is UGACCGCGAG (upper and lower strand joined, each 5' to 3', the first 5 letters being the upper strand, closing pairs included).

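A pool of all variants was put on leaves of three Nicotiana benthamiana plants. Samples came from the inoculated region at 5 days, the leaf margin at 10 and upper systemic leaves at 12.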

Numbers give reads per thousand; 0 = not seen among the reads, higher = more abundant.
Each value is the mean of three plants.
"Pool" is the share in the plasmid pool used as inoculum, on the same scale.
The inoculated region was read from the minus strand, the other sites from the plus strand.
Wild type was 20.7 per thousand in the pool and the most common sequence in every sample (inoculated region 195, 198, 203; leaf margin 629, 591, 734; systemic leaves 942, 870, 868).
Samples held 36,220 to 57,551 reads, so the smallest values rest on one or two reads.
Sequences that differ at fixed positions probably stem from PCR or sequencing errors, and defective variants can be carried along by functional ones.

For UGGUCGCGGG (pool 0.353) the result was inoculated region 0.0587; leaf margin 0; systemic leaves 0. For UUGCCGCGAG (pool 0.353) the result was inoculated region 0.198; leaf margin 0.296; systemic leaves 0.0924. UAGGCGCAAG (pool 0.0784) read inoculated region 0.0842; leaf margin 0.0232; systemic leaves 0. UAUUCGUAAG (pool 0.144) read inoculated region 0.0835; leaf margin 0; systemic leaves 0. UCUUCGUACG (pool 0.209) read inoculated region 0.0956; leaf margin 0.0155; systemic leaves 0. With UGGGCGUCAG (pool 0.288) the assay gave inoculated region 0.0887; leaf margin 0.00920; systemic leaves 0. For UCUCCGGGGG (pool 0.0915) the result was inoculated region 0.0889; leaf margin 0.00920; systemic leaves 0. UAGCCGCUGG (pool 0.170) gave inoculated region 0.107; leaf margin 0.0276; systemic leaves 0.

UCUGCGGCCG (pool 0.183) gave inoculated region 0.0784; leaf margin 0; systemic leaves 0. With UGAGCGUAAG (pool 0.170) the assay gave inoculated region 0.680; leaf margin 0.0935; systemic leaves 0. UCCCCGUACG (pool 0.301) gave inoculated region 0.0656; leaf margin 0.0436; systemic leaves 0. UGUUCGUCGG (pool 0.431) gave inoculated region 0.107; leaf margin 0.00920; systemic leaves 0. UGCACGAGCG (pool 0.222) read inoculated region 0.0892; leaf margin 0.00920; systemic leaves 0. UGCACGGGGG (pool 0.209) read inoculated region 0.113; leaf margin 0; systemic leaves 0. With UUAGCGGCUG (pool 0.209) the assay gave inoculated region 0.0956; leaf margin 0.00920; systemic leaves 0. With UCGGCGUAAG (pool 0.222) the assay gave inoculated region 0.107; leaf margin 0; systemic leaves 0.

UGCGCGCAGG (pool 0.222) gave inoculated region 0.112; leaf margin 0; systemic leaves 0. With UUAACGGACG (pool 0.235) the assay gave inoculated region 3.69; leaf margin 1.20; systemic leaves 0.458. UAUUCGCUUG (pool 0.340) gave inoculated region 0.0994; leaf margin 0.0401; systemic leaves 0. With UUUACGGUGG (pool 0.209) the assay gave inoculated region 0.0889; leaf margin 0; systemic leaves 0. For UACGCGCGCG (pool 0.196) the result was inoculated region 0.0706; leaf margin 0; systemic leaves 0. For UAGCCGAUGG (pool 0.614) the result was inoculated region 0.161; leaf margin 0.159; systemic leaves 0. With UUCUCGGGAG (pool 0.131) the assay gave inoculated region 0.0775; leaf margin 0; systemic leaves 0. UUAUCGGCAG (pool 0.288) gave inoculated region 0.596; leaf margin 0.116; systemic leaves 0.

UGGACGUGAG (pool 0.157) gave inoculated region 0.668; leaf margin 0.111; systemic leaves 0. With UAAUCGAUCG (pool 0.170) the assay gave inoculated region 0.0953; leaf margin 0.00773; systemic leaves 0. With UUUUCGCUUG (pool 0.235) the assay gave inoculated region 0.0883; leaf margin 0.00773; systemic leaves 0.0137. UCGGCGCCCG (pool 0.327) gave inoculated region 0.0831; leaf margin 0; systemic leaves 0. With UACUCGGCUG (pool 0.183) the assay gave inoculated region 0.570; leaf margin 0.0599; systemic leaves 0. With UACACGAUAG (pool 0.196) the assay gave inoculated region 0.0829; leaf margin 0.0387; systemic leaves 0.

Extract of 4 entries:

For UAGCCGAUGG (pool 0.614) the result was inoculated region 0.161; leaf margin 0.159; systemic leaves 0.
For UUAGCGGCUG (pool 0.209) the result was inoculated region 0.0956; leaf margin 0.00920; systemic leaves 0.
For UAUUCGUAAG (pool 0.144) the result was inoculated region 0.0835; leaf margin 0; systemic leaves 0.
For UCCCCGUACG (pool 0.301) the result was inoculated region 0.0656; leaf margin 0.0436; systemic leaves 0.

Values reported by Wu et al. 2024 (doi:10.1371/journal.ppat.1012142).